Results of unrelated studies side by side (data: NIAID ChemDB).

All rows: whole-cell or culture tests; organism: HIV-1; read by: cytopathic effect / MTT; read-out: EC50

ECn is the concentration giving n% inhibition of infection, replication or growth. a–b is a range or a potency band. Blank or dashed fields: not listed here. Rows are shuffled and stem from different studies.

{"smiles": "Cc1ccc(-c2cc(-c3ccc(Cl)cc3)nc(/N=C3\\C(=O)N(CN4CCCCC4)c4ccccc43)n2)cc1", "cells": "MT-4", "strain": "IIIB", "value": ">1 µM"}
{"smiles": "CC(C)CN(C[C@@H](O)[C@H](Cc1ccccc1)NC(=O)O[C@H]1CCOC1)S(=O)(=O)c1ccc2nc(NC(=O)CN3CCN(C)CC3)sc2c1", "cells": "MT-4", "strain": "LAI", "value": "<0.05 µM"}
{"smiles": "Cn1c2ccccc2c2c1cc(C#N)c(=O)n2-c1ccc([N+](=O)[O-])cc1", "changes": "RT-K101E K103N", "cells": "MT-4", "strain": "I", "value": "0.06 µM"}
{"smiles": "CC(C)CN(C[C@@H](O)[C@H](Cc1ccccc1)NC(=O)O[C@H]1CCOC1)S(=O)(=O)c1ccc2nc(NCCN(C)C)sc2c1", "cells": "MT-4", "strain": "R13080", "value": "1 µM"}
{"smiles": "FC(F)(F)c1ccc2c(c1)nc(CCl)c1cccn12", "cells": "MT-4", "value": ">100 µM"}
{"smiles": "Cc1cn([C@H]2C=C[C@@H](CO)O2)c(=O)[nH]c1=O", "cells": "MT-4", "strain": "RD 05-RT-41L 215D Recombinant", "value": "0.23 µM"}
{"smiles": "Cc1ccc(-c2cc(-c3ccc(Cl)cc3)nc(/N=C3\\C(=O)Nc4ccc(Br)cc43)n2)cc1", "cells": "MT-4", "strain": "IIIB", "value": ">10 µM"}
{"smiles": "O=C(O)CCC(NC(=O)c1ccc(OCc2nc3ccccc3n3cccc23)cc1)C(=O)O", "cells": "MT-4", "value": ">95 µM"}
{"smiles": "Cc1ccccc1Sc1c(C(=O)NCCO)[nH]c2ccc(Cl)cc12", "cells": "C8166", "strain": "IIIB", "value": "0.08 µM"}
{"smiles": "N#CC1=CC2C(c3ccccc3N2CCCN2CCOCC2)N(c2ccc([N+](=O)[O-])cc2)C1=O", "cells": "MT-4", "strain": "LAI", "value": "<1 µM"}
{"smiles": "CC1(C)C(N)=CS(=O)(=O)N1Cc1cccc(Cl)c1", "cells": "MT-4", "strain": "IIIB", "value": ">125 µg/mL"}
{"smiles": "Cc1ccccc1S(=O)(=O)c1c(C(=O)NCCO)[nH]c2ccc(Cl)cc12", "cells": "C8166", "strain": "IIIB", "value": "0.016 µM"}
{"smiles": "O=C(O)CCC(NC(=O)c1ccc(Nc2nc3ccccc3n3cccc23)cc1)C(=O)O", "cells": "MT-4", "value": ">100 µM"}
{"smiles": "CC(C)CN(C[C@@H](O)[C@H](Cc1ccccc1)NC(=O)OCc1cncs1)S(=O)(=O)c1ccc2nc(N(C)C(=O)CN(C)CCCN3CCCC3)sc2c1", "cells": "MT-4", "strain": "IIIB", "value": "0.0501 µM"}
{"smiles": "Cc1ccc(-c2cc(-c3ccc(Cl)cc3)nc(/N=C3\\C(=O)N(CN(C)C)c4ccc(Br)cc43)n2)cc1", "cells": "MT-4", "strain": "IIIB", "value": ">13 µM"}
{"smiles": "O=c1[nH]c(=O)n([C@H]2C[C@H](O)[C@@H](CO)S2)cc1/C=C/Br", "cells": "MT-4", "strain": "IIIB", "value": ">500 µM"}
{"smiles": "Cc1ccc(-c2cc(-c3ccc(Cl)cc3)nc(/N=C3\\C(=O)N(CN(C)C)c4ccc(Cl)cc43)n2)cc1", "cells": "MT-4", "strain": "IIIB", "value": ">7 µM"}
{"smiles": "Cc1cc(C)cc(Sc2c(C(=O)NNCCO)[nH]c3ccc(Cl)cc23)c1", "cells": "MT-4", "strain": "IIIB", "value": "0.03 µM"}
{"smiles": "N#CC1=CC2C(c3ccccc3N2C2CCCC2)N(c2ccc([N+](=O)[O-])cc2)C1=O", "cells": "MT-4", "strain": "LAI", "value": "1–32 µM"}
{"smiles": "Cc1ccc(Sc2c(C(=O)NCCO)[nH]c3ccc(Cl)cc23)c(C)c1", "cells": "MT-4", "strain": "IIIB", "value": "0.01 µM"}
{"smiles": "O=S(=O)(O)O.O=S(=O)(O)O.O=S(=O)(O)O.O=S(=O)(O)O.O=S(=O)(O)O.O=S(=O)(O)O.OC[C@H]1O[C@@H]2O[C@H]3[C@H](O)[C@@H](O)[C@@H](O[C@H]4[C@H](O)[C@@H](O)[C@@H](O[C@H]5[C@H](O)[C@@H](O)[C@@H](O[C@H]6[C@H](O)[C@@H](O)[C@@H](O[C@H]7[C@H](O)[C@@H](O)[C@@H](O[C@H]1[C@H](O)[C@H]2O)O[C@@H]7CO)O[C@@H]6CO)O[C@@H]5CO)O[C@@H]4CO)O[C@@H]3CO", "cells": "MT-4", "strain": "IIIB", "value": "26.2 µg/mL"}
{"smiles": "CC(C)CN(C[C@@H](O)[C@H](Cc1ccccc1)NC(=O)OCc1cncs1)S(=O)(=O)c1ccc2nc(NC(=O)CN3CCNCC3)sc2c1", "cells": "MT-4", "strain": "R13025", "value": "0.0316 µM"}
{"smiles": "COC(=O)c1ccc(C2(C)OS(=O)(=O)C=C2N)cc1", "cells": "MT-4", "strain": "IIIB", "value": ">125 µg/mL"}
{"smiles": "NC(=O)c1[nH]c2ccc(Cl)cc2c1S(=O)(=O)c1ccccc1", "changes": "RT-K103N Y181C", "cells": "MT-4", "value": "10 µM"}
{"smiles": "CC(=O)OCC1=C[C@@H]2C(=O)[C@]3(C=C(C)[C@H](OC(C)=O)[C@@]3(O)[C@@H]1OC(C)=O)[C@H](C)C[C@@H]1[C@H]2C1(C)C", "cells": "MT-4", "strain": "clinical isolate A018C AZT-resistant", "value": "0.096 µM"}
{"smiles": "Cc1ccc(-c2cc(-c3ccc(Cl)cc3)nc(/N=C3\\C(=O)Nc4ccccc43)n2)cc1", "cells": "MT-4", "strain": "IIIB", "value": ">9 µM"}
{"smiles": "ClCc1nc2ccccc2n2cccc12", "cells": "MT-4", "value": ">100 µM"}
{"smiles": "CC(=O)N(CCCN(C)C)c1nc2ccc(S(=O)(=O)N(CC(C)C)C[C@@H](O)[C@H](Cc3ccccc3)NC(=O)O[C@H]3CO[C@H]4OCC[C@H]43)cc2s1", "cells": "MT-4", "strain": "LAI", "value": "<0.05 µM"}
{"smiles": "O=C(NCCO)c1[nH]c2ccc(Cl)cc2c1S(=O)(=O)c1ccccc1", "changes": "RT-Y181C", "cells": "MT-4", "value": "1 µM"}
{"smiles": "CC(C)CN(C[C@@H](O)[C@H](Cc1ccccc1)NC(=O)OCc1cncs1)S(=O)(=O)c1ccc2nc(N(C)C(=O)CN(C)C)sc2c1", "cells": "MT-4", "strain": "R13080", "value": "0.2239 µM"}
{"smiles": "Cc1ccc(Sc2c(C(=O)NNCCO)[nH]c3ccc(Cl)cc23)cc1", "cells": "C8166", "strain": "IIIB", "value": "0.8 µM"}
{"smiles": "CC(C)CN(C[C@@H](O)[C@H](Cc1ccccc1)NC(=O)OCc1cncs1)S(=O)(=O)c1ccc2nc(N(C)C(=O)CN3CCOCC3)sc2c1", "cells": "MT-4", "strain": "R13025", "value": "0.1318 µM"}
{"smiles": "O=C1C=CC2Nc3ccccc3C2N1c1ccc(-c2nn[nH]n2)cc1", "cells": "MT-4", "strain": "LAI", "value": ">32 µM"}
{"smiles": "Cc1ccccc1S(=O)(=O)c1c(C(=O)NNCCO)[nH]c2ccc(Cl)cc12", "cells": "C8166", "strain": "IIIB", "value": "0.03 µM"}
{"smiles": "COc1ccc(CNC2=CS(=O)(=O)OC2(C)C)c(OC)c1", "cells": "MT-4", "strain": "IIIB", "value": ">125 µg/mL"}
{"smiles": "Cc1cn([C@@H]2C[C@H](O)[C@@H](CO)S2)c(=O)[nH]c1=O", "cells": "MT-4", "strain": "IIIB", "value": ">100 µM"}
{"smiles": "CC(C)CN(C[C@@H](O)[C@H](Cc1ccccc1)NC(=O)OCc1cncs1)S(=O)(=O)c1ccc2nc(N(C)C(=O)CN3CCN(C)CC3)sc2c1", "cells": "MT-4", "strain": "R13080", "value": "0.1549 µM"}
{"smiles": "CC(C)(CS(=O)(=O)[O-])[NH2+]C(=O)C(CC(F)(OC(F)(F)C(F)(OC(F)(F)C(F)(OC(F)(F)C(F)(F)C(F)(F)F)C(F)(F)F)C(F)(F)F)C(F)(F)F)C(F)(OC(F)(F)C(F)(OC(F)(F)C(F)(OC(F)(F)C(F)(F)C(F)(F)F)C(F)(F)F)C(F)(F)F)C(F)(F)F", "cells": "MT-4", "strain": "IIIB-R", "value": "0.71 µg/mL"}
{"smiles": "Cc1ccc(-c2cc(-c3ccc(Cl)cc3)nc(/N=C3\\C(=O)N(CN4CCOCC4)c4ccc(Cl)cc43)n2)cc1", "cells": "MT-4", "strain": "IIIB", "value": ">3 µM"}

3 of the rows above, restated:

smiles | changes | cells | strain | value
CC(C)CN(C[C@@H](O)[C@H](Cc1ccccc1)NC(=O)OCc1cncs1)S(=O)(=O)c1ccc2nc(N(C)C(=O)CN(C)CCCN3CCCC3)sc2c1 |  | MT-4 | IIIB | 0.0501 µM
Cc1ccc(Sc2c(C(=O)NCCO)[nH]c3ccc(Cl)cc23)c(C)c1 |  | MT-4 | IIIB | 0.01 µM
Cc1cn([C@H]2C=C[C@@H](CO)O2)c(=O)[nH]c1=O |  | MT-4 | RD 05-RT-41L 215D Recombinant | 0.23 µM